Measured values from several laboratories, pooled; numbers as filed in NIAID ChemDB.

All rows: growth or infection tests; species: Candida tropicalis

ECn: concentration that inhibits the pathogen or its effect by n%.

smiles,endpoint,conditions,dose,strain,method,result
O=c1[nH]cnc2nc(-c3ccccn3)c(-c3ccccn3)nc12,zone,,250 mg/mL,,,25 mm
CC1(C)O[C@H]2[C@H](O)[C@@H](N=[N+]=[N-])C=C(c3ccc(C=O)cc3)[C@H]2O1,inhibition,,125 µg/mL,C 131,broth dilution / turbidity,84.05%
Clc1ccc(C(Cn2ccnc2)OCc2csc3c(Cl)cccc23)c(Cl)c1,MIC90,24 h,,65 isolates,absorbance,4 µg/mL
CC(C)C[C@@H]1NC(=O)[C@H](C(C)C)NC1=O,zone,,16 µg/mL,MTCC 184,agar diffusion / agar,21 mm
C[C@@H](c1ncncc1F)[C@](O)(Cn1cncn1)c1ccc(F)cc1F,MIC,,,8663,broth dilution,0.03 µg/mL
CC(C)CC(O)C(=O)O,EC50,,,D 213,broth dilution,18000 µg/mL
Cn1c(=S)[nH]c2nc(-c3ccccn3)c(-c3ccccn3)nc2c1=O,zone,,250 mg/mL,,,0 mm
CC(C)(O)c1cn(-c2ccc([N+](=O)[O-])cc2)nn1,inhibition,,2048 µg/mL,URM 916,broth dilution,0%
Clc1nccc2nc(-c3ccccn3)c(-c3ccccn3)nc12,zone,,500 mg/mL,,,35 mm
COc1ccc(/C=C/C(=O)OC2CCN(CC(O)(Cn3cncn3)c3ccc(F)cc3F)CC2)cc1,MIC80,,,,broth dilution,0.125 µM
Nc1[nH]c(=O)ncc1F,MIC50,,,10 isolates,,0.08 µg/mL
C[C@@H]1C(=O)N(CCc2ccccc2)C(=O)[C@@H]1C,MIC,,,CCC 131-2000,broth dilution / turbidity,125 µg/mL
O=C(/C=C/c1ccc(Cl)cc1)OC1CCN(CC(O)(Cn2cncn2)c2ccc(F)cc2F)CC1,MIC80,,,,broth dilution,0.124 µM
CC(C)CC(=O)C(=O)O,MFC100,,,ATCC 750,broth dilution,>72000 µg/mL
N#Cc1ccc(/C=C/C(=O)OC2CCN(CC(O)(Cn3cncn3)c3ccc(F)cc3F)CC2)cc1,MIC80,,,,broth dilution,0.127 µM
CC(=O)N1CCN(c2ccc(OC[C@H]3CO[C@](Cn4ccnc4)(c4ccc(Cl)cc4Cl)O3)cc2)CC1,MIC90,,,10 isolates,,0.4 µg/mL
C[C@H]1[C@H](O)[C@@H](C)/C=C/C=C/C=C/C=C/C=C/C=C/C=C/[C@H](O[C@@H]2O[C@H](C)[C@@H](O)[C@H](N)[C@@H]2O)C[C@@H]2O[C@](O)(C[C@@H](O)C[C@@H](O)CC[C@H](O)[C@@H](O)C[C@@H](O)CC(=O)O[C@H]1C)C[C@H](O)[C@H]2C(=O)O,MIC50,,,11 isolates,,1 µg/mL
CC1CC(=O)N(CCc2ccccc2)C1=O,MIC,,,CCC 131-2000,broth dilution / turbidity,125 µg/mL
CC1CC2=C(O1)c1ccccc1C(=O)C2=O,MIC,,,Clinical isolate,broth dilution,40.32 µg/mL
CC[C@@H]([C@H](C)O)n1ncn(-c2ccc(N3CCN(c4ccc(OC[C@@H]5CO[C@@](Cn6cncn6)(c6ccc(F)cc6F)C5)cc4)CC3)cc2)c1=O,MIC,,,8663,broth dilution,0.03 µg/mL
O=C(/C=C/c1ccccc1)OC1CCN(CC(O)(Cn2cncn2)c2ccc(F)cc2F)CC1,MIC80,,,,broth dilution,0.033 µM
CC(C)(O)c1cn(-c2cccc3ccccc23)nn1,inhibition,,2048 µg/mL,URM 4262,,0%
Nc1nc2nc(-c3ccccn3)c(-c3ccccn3)nc2c(=O)[nH]1,zone,,250 mg/mL,,,30 mm
C[C@@H]1CC(=O)N(c2ccc(Br)cc2)C1=O,MIC,,,CCC 131-2000,broth dilution / turbidity,62.5 µg/mL
COc1ccc(/C=C/C(=O)OC2CCN(CC(O)(Cn3cncn3)c3ccc(F)cc3F)CC2)cc1OC,MIC80,,,,broth dilution,0.118 µM
CC(C)(O)c1cn(-c2ccccc2)nn1,inhibition,,2048 µg/mL,URM 933,broth dilution,0%
COc1ccc(N2C(=O)C[C@@H](C)C2=O)cc1,MIC,,,CCC 131-2000,broth dilution / turbidity,62.5 µg/mL
C=CCc1ccc(O)c(OC)c1,MIC90,,,2803,turbidity,500 µg/mL
C[C@H]1[C@H](O)[C@@H](C)/C=C/C=C/C=C/C=C/C=C/C=C/C=C/[C@H](O[C@@H]2O[C@H](C)[C@@H](O)[C@H](N)[C@@H]2O)C[C@@H]2O[C@](O)(C[C@@H](O)C[C@@H](O)CC[C@H](O)[C@@H](O)C[C@@H](O)CC(=O)O[C@H]1C)C[C@H](O)[C@H]2C(=O)O,zone,,2 µg/mL,MTCC 184,agar diffusion / agar,16 mm

Again, the opening 3 rows:

smiles | endpoint | conditions | dose | strain | method | result
O=c1[nH]cnc2nc(-c3ccccn3)c(-c3ccccn3)nc12 | zone |  | 250 mg/mL |  |  | 25 mm
CC1(C)O[C@H]2[C@H](O)[C@@H](N=[N+]=[N-])C=C(c3ccc(C=O)cc3)[C@H]2O1 | inhibition |  | 125 µg/mL | C 131 | broth dilution / turbidity | 84.05%
Clc1ccc(C(Cn2ccnc2)OCc2csc3c(Cl)cccc23)c(Cl)c1 | MIC90 | 24 h |  | 65 isolates | absorbance | 4 µg/mL

Conditions beyond the fields shown may differ between rows. Percent inhibition refers to the dose given; in toxicity tests it is the harm to the cells. MIC50, MIC90 and the like: level of inhibition, or share of isolates inhibited. Zones are inhibition diameters on agar. An empty or dashed field is not shown.